Our source for the inhibition values is PubChem BioAssay AID504690 (Sanford-Burnham Center for Chemical Genomics, 2011).

Structures are written as SMILES. The entries are a selection whose mix differs from that of the whole data set. The source made the active and inactive calls.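 The calls were made as follows: active = inhibition reaching at least a set limit at 20 µM in the primary screen (cut at about 59% in these data); inactive = the rest.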

The test system of the test is glucose-6-phosphate dehydrogenase-6-phosphogluconolactonase (Plasmodium falciparum 3D7). In words: inhibition of malaria parasite G6PD (PfGluPho) – biochemical, fluorescence intensity, uHTS, primary screen (AID 504690).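 Also: 0% = DMSO wells with substrate and 100% = DMSO wells lacking glucose-6-phosphate.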 Conditions: PfGluPho enzyme, NADPH resazurin-diaphorase fluorescence; at 20 µM; active compounds read high. On the technique in general: The colour change of resazurin is a common sign of viable cells or microbes.
As for `CCN1CCC(Nc2cccc(F)c2)CC1`, the inhibition (usually the relative decrease from the control value, in per cent) was inactive: -16.1%.
With `Cc1ccccc1NC1(C#N)CCN(Cc2ccccc2)CC1` the figure was inactive: 8.29%; with `Cn1c(=O)[nH]cc(N(CCCl)CCCl)c1=O`, inactive: 12.7%; with `CN(C)c1ccc(C(=O)NCC2(N3CCCCC3)CCCCC2)cc1`, inactive: -16.6%.
Consider `O=C(NCC1(N2CCCCC2)CCCCC1)c1ccco1`, for which the inhibition is inactive: 6.26%.
The result for `CC(=O)N(c1ccccc1)C1CCNCC1` reads inactive: -0.57%; that for `COc1cc(OC)cc(C(=O)NCC2(N3CCCCC3)CCCCC2)c1`, inactive: -4.09%.
The result for `Fc1ccccc1NC1CCN(Cc2ccccc2)CC1` reads inactive: -3.71%; that for `Cc1ccc(C(=O)NCC2(N3CCCCC3)CCCCC2)o1`, inactive: -5.08%; that for `Cc1ccc(NC2(C#N)CCN(Cc3ccccc3)CC2)cc1`, inactive: 11.2%.
With `COc1cccc(C(=O)N(c2cc(C)cc(C)c2)C2CCN(C(=O)OC(C)(C)C)CC2)c1` the figure was inactive: 19.9%; with `COc1cc(OC)cc(C(=O)NCC2(N3CCOCC3)CCCCC2)c1`, inactive: 0.07%.
For `CCC(CO)(C(=O)OC1CN2CCC1CC2)c1ccccc1` (stereo unspecified), the inhibition was inactive: -13.6%.
With `CN1CCC(Nc2ccc(Cl)cc2)CC1` the figure was inactive: 2.29%.
With `CN1CCC(Nc2ccc(F)c(Cl)c2)CC1` the figure was inactive: -17.9%.
With `CCOc1ncccc1C(=O)NCC1(N2CCOCC2)CCCCC1` the figure was inactive: -8.7%.
`O=C(O)C1(Nc2ccccc2)CCN(Cc2ccccc2)CC1`: the inhibition was inactive: 0.66%.
The result for `CC(C)(C)OC(=O)N1CCC(Nc2ccccc2)CC1` reads inactive: -5.69%; that for `CCCOc1ccc(C(=O)NCC2(N(C)C)CCCCC2)cc1`, inactive: -3.04%.
With `CCOC(=O)N1CCC(Nc2ccc(C)cc2)CC1` the figure was inactive: 0.87%.
With `N/C(=N\O)c1c(N)no[n+]1[O-]` the figure was inactive: -5.13%; with `O=C(OC1CN2CCC1CC2)C1c2ccccc2C=Cc2ccccc21` (stereo unspecified), inactive: -10.9%.
As for `CCc1cc(C(=O)NCC2(N3CCCCC3)CCCCC2)sc1C`, the inhibition was inactive: 7.45%.
With `COc1cc(C(=O)NCC2(N3CCOCC3)CCCCC2)cc(OC)c1C`, the inhibition was inactive: 12.8%.
The result for `O=C(NCC1(N2CCOCC2)CCCCC1)c1cc(Br)ccc1Cl` reads inactive: -4.81%; that for `COc1ccc(C(=O)NCC2(N3CCOCC3)CCCCC2)cc1OC`, inactive: -6.4%.
With `CN(C)C1(CNC(=O)c2cccc(C#N)c2)CCCCC1` the figure was inactive: 8.38%.
Consider `Cc1cc(N(CCCl)CCCl)ccc1C=O`, for which the inhibition was inactive: 6.24%.
The result for `CCCN1CCC(Nc2cc(OC)cc(OC)c2)CC1` reads inactive: 12.7%; that for `c1ccc(CN2CCC(Nc3ccccc3)CC2)cc1`, inactive: 9.6%; that for `N#Cc1ccc(C(=O)NCC2(N3CCCCC3)CCCCC2)cc1`, inactive: -17.4%.
The result for `CC(C)(C)OC(=O)N1CCC(N(C(=O)c2ccccc2)c2ccc(Cl)cc2)CC1` reads inactive: -8.46%; that for `O=C(NCC1(N2CCCCC2)CCCCC1)c1cccc(C(F)(F)F)c1`, inactive: 0.24%.
The result for `O=C(NCC1(N2CCOCC2)CCCCC1)c1cc(=O)[nH]c2ccccc12` reads inactive: -3.52%; that for `COc1cc(C(=O)NCC2(N3CCCCC3)CCCCC2)ccc1OC(F)F`, inactive: 6.73%.
Consider `CC(C)c1ccc(C(=O)NCC2(N3CCOCC3)CCCCC2)cc1`, for which the inhibition was inactive: 27.9%.
The result for `COc1ccc(NC2CCN(C(=O)OC(C)(C)C)CC2)cc1` reads inactive: 19.1%; that for `CN1CCN(CCOC(=O)C(O)(c2ccccc2)c2ccccc2)CC1`, inactive: -6.26%.
In the case of `O=C(NCC1(N2CCCCC2)CCCCC1)c1ccc(OC(F)F)cc1`, the inhibition is inactive: -15.1%.
With `N#CC1(Nc2ccccc2)CCN(CCc2ccccc2)CC1` the figure was inactive: -4.37%; with `CCN1CCC(Nc2ccc(Cl)cc2)CC1`, inactive: 5.92%; with `O=C(NCC1(N2CCCCC2)CCCCC1)c1cccc([N+](=O)[O-])c1`, inactive: 6.83%.
The result for `CSc1ccc(C(=O)NCC2(N3CCOCC3)CCCCC2)cc1` reads inactive: 26.7%; that for `O=C(NCC1(N2CCCCC2)CCCCC1)c1cncc(Br)c1`, inactive: 7.88%.
The result for `CN1CCC(Nc2cccc(F)c2)CC1` reads inactive: -1.28%; that for `CCCOc1ccc(C(=O)NCC2(N(C)C)CCCCC2)cc1OC`, inactive: -5.02%.
With `Cc1ccc(C(=O)NCC2(N(C)C)CCCCC2)o1`, the inhibition is inactive: -16.1%.
With `CC(C)c1ccc(NC2CCN(C(=O)OC(C)(C)C)CC2)cc1` the figure was inactive: 2.12%; with `CN(C)c1cccc(C(=O)NCC2(N3CCCCC3)CCCCC2)c1`, inactive: -13.8%; with `COc1ccc(CN(CCCl)CCCl)cc1Cl`, inactive: 8.97%.
Regarding `O=C(NCC1(N2CCOCC2)CCCCC1)c1cc(F)c(F)cc1Cl`, the inhibition was inactive: 4.83%.
With `COc1cc(OC)c(C(=O)NCC2(N(C)C)CCCCC2)cc1OC` the figure was inactive: -7.81%; with `Cc1cc(C)cc(N(C(=O)c2ccccc2)C2CCN(C(=O)OC(C)(C)C)CC2)c1`, inactive: 16.8%.
The result for `O=C(NCC1(N2CCCCC2)CCCCC1)c1ccc(Cl)nc1` reads inactive: 5.31%; that for `O=C(NCC1(N2CCOCC2)CCCCC1)c1cc2ccccc2o1`, inactive: 22.7%; that for `COc1ccc(Cl)cc1C(=O)NCC1(N2CCOCC2)CCCCC1`, inactive: 25.2%.
With `O=C(OC1CN2CCC1CC2)C1c2ccccc2Oc2ccccc21` (stereo unspecified) the figure was inactive: 22.2%.
On to `O=C(NCC1(N2CCCCC2)CCCCC1)c1ccc(Cl)s1`, for which the inhibition was inactive: -7.1%.
With `N#CC1(Nc2ccccc2)CCN(Cc2ccccc2)CC1` the figure was inactive: -7.31%; with `CCOC(=O)N1CCC(Nc2ccc(OC)cc2)CC1`, inactive: -1.12%.
The result for `CC(C)(C)OC(=O)N1CCC(N(C(=O)c2ccccc2)c2ccc(F)cc2)CC1` reads inactive: -5.58%.
As to `COc1ccc(C(=O)NCC2(N3CCCCC3)CCCCC2)c(OC)c1OC`, the inhibition is inactive: -17%.
With `COc1ccc(C(=O)NCC2(N3CCCCC3)CCCCC2)cc1` the figure was inactive: 10.6%.
The result for `O=C(NCC1(N2CCCCC2)CCCCC1)c1cccs1` reads inactive: -21.9%; that for `O=C(NCC1(N2CCCCC2)CCCCC1)c1ccc(=O)[nH]c1`, inactive: -11.7%; that for `Cc1cccc(NC2(C#N)CCN(Cc3ccccc3)CC2)c1`, inactive: 4.46%.
The result for `CSc1ccccc1C(=O)NCC1(N2CCCCC2)CCCCC1` reads inactive: -0.28%.
Turning to `COc1cc(C(=O)NCC2(N(C)C)CCCCC2)ccc1OC(F)F`, the inhibition is inactive: -3.84%.
Take `CCOC(=O)N1CCC(Nc2cccc(C)c2)CC1`: the inhibition was inactive: 19.1%.
The result for `O=C1CCN(Cc2ccccc2)CC1` reads inactive: 18.4%; that for `CCOc1ccc(C)cc1CN(CCCl)CCCl`, inactive: 17.9%.
The result for `CCOC(=O)N1CCC(Nc2ccc(F)cc2)CC1` reads inactive: 3.85%; that for `COc1ccc(NC2CCN(CCc3ccccc3)CC2)c(OC)c1`, inactive: 15.2%.
With `O=C(NCC1(N2CCCCC2)CCCCC1)c1ccc(F)cc1` the figure was inactive: 2.36%; with `CCCCOc1ccc(C(=O)NCC2(N3CCOCC3)CCCCC2)cc1`, inactive: 12.2%.
On to `O=P1(N(CCCl)CCCl)SCCCS1`, for which the inhibition was inactive: -1.68%.
